Data from PMC4877379.
Construct, isoform or probe ends are uncertain for at least one entry.

Molecular target: T1, CodY (B. cereus INRA C3) (Bacillus cereus INRA C3) (UniProt Q819X8)
T1 sequence: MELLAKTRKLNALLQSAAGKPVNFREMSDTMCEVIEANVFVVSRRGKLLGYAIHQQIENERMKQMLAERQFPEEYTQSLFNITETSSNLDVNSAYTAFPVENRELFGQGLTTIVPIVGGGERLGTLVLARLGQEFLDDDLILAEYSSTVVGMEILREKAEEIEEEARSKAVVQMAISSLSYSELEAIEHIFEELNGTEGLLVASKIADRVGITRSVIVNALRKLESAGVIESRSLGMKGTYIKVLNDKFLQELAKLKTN
Experiment: EMSA
Details: positive control; recombinant protein; protein details: N-terminal His6 (pET28b(+), NdeI/XhoI); probe letters rebuilt from the primers and the genome

## ATGTAATTCCTCCCTAATTATCGGTCATAATTGCTGCTACAGAATACATGATAATGCAATCGGACTTTGTGTTTTATATAGTGAATTATCAAATACTTTGTAGATGAAACAAAGATAAAATCCCCATTAAACTCCCTCTATGGAAATTATAAATTGTTCGATAAAAACTTTCAATATTTTCAGAAAACATTGTTGAATTGTGATATATCCGTATGCTAACTATGAAATTTTTACAAATATATTAAAAACATTACATAATATGACTAAATATTGAAAAAATATTGAATTTTTAATAAAATTTAATTTGTAATACATATTATTTATTAGGGGAGGAAATAAGGGATGAACAA (double strand) [PinhA1 INRA C3]
  Kd: 250 nM
